Measured values from several laboratories, pooled; numbers as filed in NIAID ChemDB.

Common to all: growth or infection tests; organism: Mycobacterium tuberculosis

Lines come from different laboratories, so protocols vary. Fold resistance has wild type as its base. MIC bound comes from a single tested concentration. Percent inhibition refers to the dose given; in toxicity tests it is the harm to the cells. An empty or dashed field is not shown. MIC50, MIC90 and the like: level of inhibition, or share of isolates inhibited. ECn is the concentration giving n% inhibition of infection, replication or growth.

compound	measure	strain	dose	cell line	method	changes	value
O=C1Oc2ccccc2C(=O)/C1=C1\C=C(c2ccccc2)SS1	MIC bound	H37Rv			BACTEC		>12.5 µg/mL
CC(=O)Oc1c(C/C=C(\C)CC/C=C(\C)CCC=C(C)C)c(=O)oc2ccccc12	EC50	H37Rv					>12.5 µg/mL
O=C1C=CC(=O)N1c1ccc(N2CCCCC2)cc1	MIC	Clinical isolate (isoniazid-resistant)					≤20 µg/mL
Cc1ccc(Nc2[nH]n3c(=O)cc(C)nc3c2C(=O)Nc2ccc(Cl)cc2)c(C)c1	MIC	H37Rv			resazurin		50 µg/mL
CCCCCCCCCN1C(=O)CC(SCCNC(=O)c2ccc(CCCC)cc2)C1=O	MIC	H37Ra					≤20 µg/mL
Cc1ccc(/C=N/N=c2/scc(-c3cc4ccccc4oc3=O)n2C2CCCCC2)cc1	inhibition	H37Rv	6.25 µg/mL				0%
CN(/N=N/c1nc[nH]c1C(=O)NN)C1CCCCC1	MIC	H37Rv			BACTEC		≥12.5 µg/mL
CO[C@H]1/C=C/O[C@@]2(C)Oc3c(C)c(O)c4c(O)c(cc(N5CCNCC5)c4c3C2=O)NC(=O)/C(C)=C\C=C\[C@H](C)[C@H](O)[C@@H](C)[C@@H](O)[C@@H](C)[C@H](OC(C)=O)[C@@H]1C	MIC	H37Rv					0.1 µg/mL
O=c1oc2ccc(Br)cc2cc1-c1cs/c(=N/N=C/c2ccc(F)cc2)n1C1CCCCC1	MIC	H37Rv					>6.25 µg/mL
Cc1noc(-c2nc(C)c3c(c2N)C(=O)N(Cc2cccc(OC(F)(F)F)c2)C3=O)n1	MIC90	H37Rv-MA			resazurin / visual reading	Ala317Thr	>10 µM
Cc1ccc2nc(SCc3cc(C(F)(F)F)cc(C(F)(F)F)c3)[nH]c2c1	MIC	MY 332/88					32 µM
O=C(O)c1ccc(-n2[nH]c(=S)n(-c3ccc(F)cc3)c(=O)c2=O)cc1O	MIC90	H37Rv			resazurin		<6.25 µg/mL
CN(C)CC=C(c1ccc(Br)cc1)c1ccc(-c2ccc(Br)cc2)cc1	MIC	ALI 536					≤4 µg/mL
CO[C@H]1/C=C/O[C@@]2(C)Oc3c(C)c(O)c4c(O)c(cc(N5CCN(C)CC5)c4c3C2=O)NC(=O)/C(C)=C\C=C\[C@H](C)[C@H](O)[C@@H](C)[C@@H](O)[C@@H](C)[C@H](OC(C)=O)[C@@H]1C	MIC	H37Rv					0.1 µg/mL
CCOC(=O)C1=C(C)O/C(=C\C=C\c2ccccc2)C1=O	MIC bound	H37Rv			BACTEC		>12.5 µg/mL
O=C(O)c1ccc(N2C(=O)/C(=C/c3ccc(F)cc3)N=C2c2ccccc2)cc1O	MIC90	H37Rv			resazurin		<6.25 µg/mL
CONc1ncnc2c1n(C/C=C(\C)CC/C=C(\C)CCC1CCCCC1)c[n+]2C	inhibition		6.25 µg/mL				99%
CCCCCCCCCN1C(=O)C=C(C)C1=O	MIC	H37Ra					≤20 µg/mL
O=C1c2[nH]cnc2N(Cc2ccc(Cl)cc2)C2=NCCN12	MIC bound	H37Rv			resazurin		>6.25 µg/mL
CCCCCCCCCCCCCCCCNCc1cccnc1	MIC	H37Ra					<25 µg/mL
O=C(Nc1cccc(F)c1)c1cc(Br)ccc1O	MIC	CNCTC MY331/88					8 µM
CN(C)C/C=C(/c1ccccc1)c1ccc(-c2ccc(Br)cc2)cc1	MIC	ALI 258					≤5 µg/mL
CCCCCCCCCN1C(=O)CC(SCCNC(=O)C2CC2)C1=O	MIC	H37Ra					≤20 µg/mL
CCCCNC(CC(=O)OCC)c1cccc([N+](=O)[O-])c1	MIC	H37Ra					>25 µg/mL
O=C/C=C/c1ccc([N+](=O)[O-])cc1Cl	MIC bound	H37Rv			BACTEC		≤12.5 µg/mL
Cc1ccc2nc(SCc3ccc(Cl)c(Cl)c3)[nH]c2c1	MIC	MY 332/88					>32 µM
CC1=NN(c2cc(Cl)c(S(=O)(=O)O)cc2Cl)C(=O)C1N=Nc1ccc(S(=O)(=O)O)cc1	MIC	H37Rv			BACTEC		≥12.5 µg/mL
O=C(Nc1ccc(Cl)c(Cl)c1)c1cc([N+](=O)[O-])ccc1O	MIC	CNCTC MY331/88					31 µM
Cc1ccc2nc(SCc3ccc(Br)cc3)[nH]c2c1	MIC	MY 332/88					>32 µM
CN(C)C/C=C(\c1ccc(I)cc1)c1ccc(-c2ccc(Br)cc2)cc1	MIC	ALI 282					≤4 µg/mL
Oc1ccccc1CNCCCCCNCc1ccccc1O	MIC	H37Ra					>25 µg/mL
O=C(O)c1ccc(/C=[N+]2\C(=O)Nc3ccc(F)cc32)cc1O	MIC90	H37Rv			resazurin		<6.25 µg/mL
CCCCCCCCCCCCNCc1ccccn1	MIC	H37Ra					<25 µg/mL
CCCCCCCCCN1C(=O)CCCC1=O	MIC	Clinical isolate (isoniazid-resistant)					≤20 µg/mL
Cc1c2ccncc2cc2c1sc1ccncc12	MIC	H37Rv		VERO	resazurin		0.39 µg/mL
O=C(O)c1ccc(NC(C(=O)c2ccc(F)cc2)N2CCN(C(Nc3ccc(C(=O)O)c(O)c3)C(=O)c3ccc(F)cc3)CC2)cc1O	MIC90	H37Rv			resazurin		<6.25 µg/mL
Cc1ccc(Nc2[nH]n3c(=O)cc(C)nc3c2C(=O)Nc2ccc(F)cc2)c(C)c1	MIC	H37Rv			resazurin		50 µg/mL
Cc1ccc2nc(SCc3c(F)cccc3Cl)[nH]c2c1	MIC	MY 332/88					16 µM
Nc1ncnc2c1ncn2[C@H]1O[C@@H](CO)[C@H](O)[C@@H]1N	MIC bound	H37Rv			BACTEC		>12.5 µg/mL
CCCCCCCCCCCCCCCCNCc1ccncc1	MIC	Sensitive strains					3.12 µg/mL
C[C@]12CC[C@H]3[C@@H](CC[C@]4(O)C[C@@H](O)CC[C@]34/C=N\O)[C@@]1(O)CC[C@@H]2C1=COC(=O)C1	MIC bound	H37Rv			resazurin		>6.25 µg/mL
CC(C)c1cc2c(cc1O)[C@@]1(C)CCCC(C)(C)C1CC2	inhibition	H37Rv	12.5 µg/mL				0%
CN(C)C/C=C(\c1ccc(Cl)cc1)c1ccc(-c2ccc(Br)cc2)cc1	MIC	ALI 536					≤5 µg/mL
CCCN(CCC)c1cc2c(O)c3c(O)c(C)c4c(c13)C(=O)[C@@](C)(O/C=C/[C@H](OC)[C@@H](C)[C@@H](OC(C)=O)[C@H](C)[C@H](O)[C@H](C)[C@@H](O)[C@@H](C)/C=C/C=C(/C)C(=O)N2)O4	MIC	H37Rv					0.2 µg/mL
COC(=O)C(CO)NC(=O)C(Cc1ccccc1)NC(=O)OC(C)(C)C	inhibition	H37Rv	12.8 µg/mL		BACTEC		23%
CONc1ncnc2c1n(C/C=C(\C)CCC=C(C)C)c[n+]2C	inhibition		6.25 µg/mL				27%
Cc1ccc2nc(SCc3cc([N+](=O)[O-])cc([N+](=O)[O-])c3)[nH]c2c1	MIC	MY 332/88					4 µM
O=C(Nc1ccc(Cl)c(Cl)c1)c1ccccc1O	MIC	CNCTC MY331/88					8 µM
CCCCCCCCCN1C(=O)CC(C)(SCC(N)C(=O)O)C1=O	MIC	Clinical isolate (isoniazid-resistant)					≤20 µg/mL
COc1ccc(/C=N/N=c2/scc(-c3cc4ccccc4oc3=O)n2C2CCCCC2)cc1OC	EC50	H37Rv					>6.25 µg/mL
O=C(Nc1ccc(C(=O)O)c(OC(=O)c2ccc(F)cc2)c1)c1ccc(F)cc1	MIC90	H37Rv			resazurin		<6.25 µg/mL
O=c1sc(N=Nc2ccccc2)nn1-c1ccccc1	MIC bound	H37Rv			BACTEC		>12.5 µg/mL
C/C=C(/C)C(=O)OC1CC(C)(C)CC2C3=CCC4C5(C)CC[C@H](OC(C)=O)C(C)(C)C5CC[C@@]4(C)[C@]3(C)CC[C@@]12C(=O)O	MIC	H37Rv (isoniazid-resistant)					25 µg/mL
S=C1SCN(Cc2ccccc2)CN1Cc1ccccc1	inhibition	H37Rv	12.5 µg/mL		BACTEC		98%
CCCCCCCCCN1C(=O)CC(CC)C1=O	MIC	Clinical isolate (isoniazid-resistant)					≤20 µg/mL
O=C(O)c1cn(C2CC2)c2cc(N3CCNCC3)c(F)cc2c1=O	MIC	H37Rv			resazurin		3.12 µg/mL
CCC1C(=O)OCC1Cc1cnc[nH]1	MIC bound	H37Rv			BACTEC		>12.5 µg/mL
CCCCCCCCCN1C(=O)CC(SCCNC(=O)C2CCCCC2)C1=O	MIC	Clinical isolate (isoniazid-resistant)					≤20 µg/mL
CC1=NN(c2ccccc2)C(=O)C1N=Nc1ccc(S(=O)(=O)Nc2occ(C)c2C)cc1	MIC bound	H37Rv			BACTEC		>12.8 µg/mL
NNC(=O)c1ccncc1	EC90	H37Ra-lux			luminescence		0.31 µM
CN(Cc1cnc2nc(N)nc(N)c2n1)c1cc(Cl)c(C(=O)N[C@@H](CCC(=O)O)C(=O)O)c(Cl)c1	inhibition	H37Rv	12.5 µg/mL		BACTEC		8%
CO[C@H]1/C=C/O[C@@]2(C)Oc3c(C)c(O)c4c(O)c(cc(O)c4c3C2=O)NC(=O)/C(C)=C\C=C\[C@H](C)[C@H](O)[C@@H](C)[C@@H](O)[C@@H](C)[C@H](OC(C)=O)[C@@H]1C	MIC	H37Rv					0.05 µg/mL
CCCCCCCCCCCCNCc1ccccc1O	MIC	H37Ra					<25 µg/mL
Cc1cc(O)c(C=NC(=S)c2ccncc2)c(=O)o1	inhibition	H37Rv	6.25 µg/mL		resazurin		-124%
Cc1ccc2nc(SCc3ccccc3F)[nH]c2c1	MIC	MY 332/88					62 µM
O=C(Nc1cccc([N+](=O)[O-])c1)c1cc([N+](=O)[O-])ccc1O	MIC	CNCTC MY331/88					31 µM
CS/C(=N\S(=O)(=O)c1ccccc1)NNC(=O)c1c(-c2c(Cl)cccc2Cl)noc1C	MIC bound	H37Rv			BACTEC		>12.5 µg/mL
CCOC(=O)N1CCN(c2cc3c(O)c4c(O)c(C)c5c(c24)C(=O)[C@@](C)(O/C=C/[C@H](OC)[C@@H](C)[C@@H](OC(C)=O)[C@H](C)[C@H](O)[C@H](C)[C@@H](O)[C@@H](C)/C=C/C=C(/C)C(=O)N3)O5)CC1	MIC	H37Rv					0.1 µg/mL
CN(C)C/C=C(\c1ccc(N)cc1)c1ccc(-c2ccc(Br)cc2)cc1	MIC	ALI 552					39 µg/mL
COc1cccc(CN2C(=O)c3c(C)nc(-c4nc(C)no4)c(N)c3C2=O)c1	MIC90	H37Rv-MA			resazurin / visual reading	Ala317Thr	>10 µM
CC(C1=C(O)c2ccccc2C(=O)C1=O)C1=C(O)c2ccccc2C(=O)C1=O	MIC bound	H37Rv			BACTEC		>12.8 µg/mL
CCc1ccc([C@H]2C[C@@H](C(F)(F)F)n3ncc(C(=O)NCc4ccc5c(c4)OCO5)c3N2)cc1	fold resistance	H37Rv			fluorescence	MmpL3: Phe644Cys	22.5
CCCCCCCCNC1(C)CC(=O)N(CCCCCCCC)C1=O	MIC	H37Rv					≤20 µg/mL
Oc1ccccc1CNCCCNCc1ccccc1O	MIC	Sensitive strains					25 µg/mL
CO[C@H]1C[C@@H]2\C=C(C)/C=C/C=C\C(=O)N[C@H](c3ccccc3)C/C=C/CC[C@H](O)CC(=O)C2=C1O	MIC	ETA-R					3.1 µg/mL
Cc1ccc(-c2n[nH]c(=O)n2-n2c(C)ccc2C)cc1	MIC	9361					2.58 µg/mL
Cc1ccc2nc(SCc3ccc(Cl)cc3)[nH]c2c1	MIC	MY 332/88					32 µM
COc1ccc(Nc2[nH]n3c(=O)cc(C)nc3c2C(=O)Nc2ccc(C)cc2C)cc1	MIC	H37Rv			resazurin		50 µg/mL
CO[C@H]1/C=C/O[C@@]2(C)Oc3c(C)c(O)c4c(O)c(cc(N5CCCCC5)c4c3C2=O)NC(=O)/C(C)=C\C=C\[C@H](C)[C@H](O)[C@@H](C)[C@@H](O)[C@@H](C)[C@H](OC(C)=O)[C@@H]1C	MIC	H37Rv					0.1 µg/mL
CCCCCCCCNC(CC(=O)OCC)c1ccccc1	MIC	H37Ra					<25 µg/mL
O=C(O)c1ccc(N2C(=O)C(Cl)C2c2ccc(F)cc2)cc1O	MIC90	H37Rv			resazurin		<6.25 µg/mL
Cc1ccc(/C=N/N=c2/scc(-c3cc4cc(Br)ccc4oc3=O)n2C2CCCCC2)cc1	MIC	H37Rv					>6.25 µg/mL
Cc1ccc2nc(SCc3c(F)cccc3[N+](=O)[O-])[nH]c2c1	MIC	MY 332/88					62 µM

Repeating the first 4 entries:

O=C1Oc2ccccc2C(=O)/C1=C1\C=C(c2ccccc2)SS1 ; measure: MIC bound ; strain: H37Rv ; method: BACTEC ; value: >12.5 µg/mL
CC(=O)Oc1c(C/C=C(\C)CC/C=C(\C)CCC=C(C)C)c(=O)oc2ccccc12 ; measure: EC50 ; strain: H37Rv ; value: >12.5 µg/mL
O=C1C=CC(=O)N1c1ccc(N2CCCCC2)cc1 ; measure: MIC ; strain: Clinical isolate (isoniazid-resistant) ; value: ≤20 µg/mL
Cc1ccc(Nc2[nH]n3c(=O)cc(C)nc3c2C(=O)Nc2ccc(Cl)cc2)c(C)c1 ; measure: MIC ; strain: H37Rv ; method: resazurin ; value: 50 µg/mL